Measured values from several laboratories, pooled; numbers as filed in NIAID ChemDB.

All rows: host cell toxicity; cell line: HeLa; endpoint: CC50

CCn is the concentration with n% toxicity to the cells. Lines come from different laboratories, so protocols vary. a–b is a range or a potency band.

{"SMILES": "CCOC(=O)/C=C/[C@H](CCC(N)=O)NC(=O)[C@H](Cc1ccccc1)NC(=O)[C@@H](NC(=O)OCc1ccccc1)C(C)C", "result": ">100 µM"}
{"SMILES": "N#Cc1ccc(OCCCCC(=O)c2ccccc2)cc1", "result": ">267 µM"}
{"SMILES": "Cc1nc(C(C)C)c2[nH]c(=S)[nH]c(=O)n12", "result": ">400 µg/mL"}
{"SMILES": "COc1cc(O)c2c(=O)cc(-c3ccc(OC)c(OC)c3)oc2c1", "result": "168 µg/mL"}
{"SMILES": "CC(=O)Nc1ccc(Cc2ccc(S(C)(=O)=O)cn2)cc1", "result": ">10 µg/mL"}
{"SMILES": "CN(C)C(=O)CNc1cccc(-c2cc(=O)n(O)c3ncccc23)c1", "result": "<100 µM"}
{"SMILES": "COc1cnc(C(N)=O)c2[nH]cc(C(=O)C(=O)N3CCN(C(=O)c4ccccc4)CC3)c12", "method": "trypan blue", "result": ">100 µM"}
{"SMILES": "O=C1c2ccccc2C(=O)c2c1ccc1[nH]c(CNCCCCCCCCN3[C@@H](CO)[C@@H](O)[C@H](O)[C@@H]3CO)nc21", "method": "MTT", "result": "6.8 µM"}
{"SMILES": "CC(=O)O[C@H]1C[C@]2(C)C(=CCC3[C@@]4(C)CC[C@@H](OC(C)=O)C(C)(C)C4CC[C@]32C)C2[C@H](C(C)C)CC[C@@]21C", "result": ">10 µM"}
{"SMILES": "O=c1c(-c2ccccn2)c(O)c2cccnc2n1O", "result": "0.5 µM"}
{"SMILES": "C/C(=C/[C@H]1C[C@](C)(O)C2[C@@H](C[C@@]3(C)[C@@H]4CC=C5[C@@H](C[C@H](O)[C@@H](O)C5(C)C)[C@]4(C)C(=O)C[C@]23C)O1)CO", "method": "MTT", "result": ">50 µM"}
{"SMILES": "CCN(CC)c1noc(-c2ccc(O)cc2O)c1Cc1c(N(CC)CC)noc1-c1ccc(OC)cc1O", "result": "3.5 µM"}
{"SMILES": "C=CCSc1n[nH]c(-c2cccc(C(F)(F)F)c2)n1", "result": "13.78 µg/mL"}
{"SMILES": "CSc1ccc(C(=O)CCCCOc2ccc(C3=NCCO3)cc2)cc1", "result": ">271 µM"}
{"SMILES": "Cc1nc(CC(O)CO)c2nc[nH]c(=O)n12", "result": ">400 µg/mL"}
{"SMILES": "C=CCSc1n[nH]c(-c2ccc([N+](=O)[O-])c(C)c2)n1", "result": "26.91 µg/mL"}
{"SMILES": "COc1cnc(-n2ccc(N)n2)c2[nH]cc(C(=O)C(=O)N3CCN(C(=O)c4ccccc4)CC3)c12", "method": "trypan blue", "result": ">100 µM"}
{"SMILES": "CCOC(=O)c1c(-c2ccc(CCc3ccc(N)cc3)cc2)c2cccnc2n(O)c1=O", "result": "<100 µM"}
{"SMILES": "CSc1noc(-c2ccc(OCCOc3ccc([N+](=O)[O-])cc3)cc2)c1C#N", "result": "10 µM"}
{"SMILES": "CC(=O)Nc1nc2c(CC(O)CO)ncn2c(=O)[nH]1", "result": "200 µg/mL"}
{"SMILES": "Nc1ncnc2c1ncn2C[C@H](O)CO", "result": ">400 µg/mL"}
{"SMILES": "CCOc1cc(O)c(C(=O)NCc2ccc(NC)cc2)c(OC)c1", "result": "43 µg/mL"}
{"SMILES": "O=C1c2ccccc2C(=O)c2c1ccc1[nH]c(CNCCCN3[C@@H](CO)[C@@H](O)[C@H](O)[C@@H]3CO)nc21", "method": "MTT", "result": "80.39 µM"}
{"SMILES": "CCOc1ccc(-c2onc(N(CC)CC)c2Cc2c(N(CC)CC)noc2-c2ccc(O)cc2O)c(O)c1", "result": "17 µM"}
{"SMILES": "COc1ccc(C(=O)CCCCOc2ccc(C#N)cc2)cc1", "result": "194 µM"}
{"SMILES": "CCOc1ccc(-c2cc(N(CC)CC)no2)c(O)c1", "result": ">362 µM"}
{"SMILES": "O=C(NCC1CCNCC1)c1c(O)c2cccnc2n(O)c1=O", "result": "<100 µM"}
{"SMILES": "COc1ccc(CNC(=O)c2c(O)cc(OCC=C(C)C)cc2OC)cc1", "result": "29 µg/mL"}
{"SMILES": "CC(=O)Nc1nc2c(CC(O)CO)nc(C)n2c(=O)[nH]1", "result": ">400 µg/mL"}
{"SMILES": "CS(=O)(=O)c1ccc(Cc2ccc(S(C)(=O)=O)cn2)cc1", "result": ">10 µg/mL"}
{"SMILES": "CC(C)(C)C(=O)OCn1nc([C@@H]2O[C@H](CO)C[C@H]2O)c2ncnc(N)c21", "result": "200 µg/mL"}
{"SMILES": "CCn1nc(CC(=O)NN=C(C)C)nc1C", "result": ">400 µg/mL"}
{"SMILES": "CCOc1ccc(-c2cc(N3CCCCC3)no2)c(O)c1", "result": ">347 µM"}
{"SMILES": "CCOC(=O)/C=C/[C@H](CCC(N)=O)NC(=O)[C@H](Cc1ccccc1)NC(=O)[C@@H](NC(=O)OCc1ccccc1)C(C)CC", "result": "178 µM"}
{"SMILES": "CC(=O)O[C@H]1CC[C@@]2(C)C(CC[C@]3(C)C2CC=C2C4[C@H](C(C)C)CC[C@]4(C)[C@@H](OC(C)=O)C[C@]23C)C1(C)C", "result": ">10 µM"}
{"SMILES": "COCC(=O)NC(CCSC[C@H]1O[C@@H](n2ccc3c(N)ncnc32)[C@H](O)[C@@H]1O)C(=O)OC(C)C", "result": "400 µg/mL"}
{"SMILES": "COc1ccc(-c2cc(=O)c3c(O)c(OC)c(OC)cc3o2)cc1OC", "result": "147 µg/mL"}
{"SMILES": "Nc1ncnc2c([C@H]3C[C@H](O)[C@@H](CO)O3)[nH]nc12", "result": ">400 µg/mL"}
{"SMILES": "CSc1noc(-c2ccc(OCCCCOc3ccccc3)cc2)c1C#N", "result": "10 µM"}
{"SMILES": "O=C(C(=O)N1CCN(C(=O)c2ccccc2)CC1)c1c[nH]c2c(-n3cccc3)ncc(F)c12", "method": "trypan blue", "result": ">100 µM"}
{"SMILES": "NNC(=O)Cc1nc2n(n1)CCCCC2", "result": ">400 µg/mL"}
{"SMILES": "Cc1ncnn1-c1cc(Cl)nc2c(C(=O)C(=O)N3CCN(C(=O)c4ccccc4)[C@H](C)C3)c[nH]c12", "method": "trypan blue", "result": ">100 µM"}
{"SMILES": "C#CCSc1n[nH]c(-c2ccco2)n1", "result": "56 µg/mL"}
{"SMILES": "CCOC(=O)c1ccnc2c1c(O)cc(=O)n2O", "result": "<100 µM"}
{"SMILES": "Cc1cc(CCCCCCCOc2ccc(C3=NCCO3)cc2)on1", "result": "36 µM"}
{"SMILES": "O=C1c2ccccc2C(=O)c2c1ccc1[nH]c([C@H]3O[C@H](CO)[C@H](O)[C@H]3O)nc21", "method": "MTT", "result": "12.32 µM"}
{"SMILES": "CS(=O)(=O)c1ccc(Cc2ccccc2)nc1", "result": ">10 µg/mL"}
{"SMILES": "CCc1ccn(-c2ncc(OC)c3c(C(=O)C(=O)N4CCN(C(=O)c5ccccc5)[C@H](C)C4)c[nH]c23)n1", "method": "trypan blue", "result": ">100 µM"}
{"SMILES": "CC(C)C[C@H](NC(=O)OCc1ccccc1)C(=O)N[C@@H](Cc1ccccc1)C(=O)N[C@H](/C=C/C(=O)NC1CCCC1)CCC(N)=O", "method": "XTT", "result": ">100 µM"}
{"SMILES": "CCOc1cc(O)c(C(=O)/C=C/c2ccc(OC)cc2)c(OC)c1", "result": "18 µg/mL"}
{"SMILES": "COCCNC(=O)c1cc2c(s1)-c1ccccc1N(C(=O)c1ccc(NC(=O)c3ccccc3-c3ccccc3)cc1)CC2", "result": ">100 µM"}
{"SMILES": "Cc1cn([C@H]2C[C@H](O[Si](C)(C)C(C)(C)C)[C@@H](/C=C/C#N)O2)c(=O)[nH]c1=O", "result": "50–100 µM"}
{"SMILES": "C=CCSc1n[nH]c(-c2ccco2)n1", "result": "59.3 µg/mL"}
{"SMILES": "CCCCOC(=O)C(N)CCSC[C@H]1O[C@@H](n2ccc3c(N)ncnc32)[C@H](O)[C@@H]1O", "result": "100 µg/mL"}
{"SMILES": "CCc1nc(CC(=O)NN=C(C)C)nn1CC", "result": ">400 µg/mL"}
{"SMILES": "CCc1ncn(-c2ncc(OC)c3c(C(=O)C(=O)N4CCN(C(=O)c5ccccc5)CC4)c[nH]c23)n1", "method": "trypan blue", "result": ">100 µM"}
{"SMILES": "CCOC(=O)/C=C/[C@H](CCC(N)=O)NC(=O)[C@H](Cc1ccccc1)NC(=O)[C@H](CC(C)C)NC(=O)SC1CCCC1", "result": ">320 µM"}
{"SMILES": "O=C(C(=O)N1CCN(C(=O)c2ccccc2)CC1)c1c[nH]c2c(N3CCCC3)ncc(F)c12", "method": "trypan blue", "result": ">100 µM"}
{"SMILES": "O=C1c2ccccc2C(=O)c2c1ccc1[nH]c(CNCCCCN3[C@@H](CO)[C@@H](O)[C@H](O)[C@@H]3CO)nc21", "method": "MTT", "result": "124 µM"}
{"SMILES": "COC(C)(C)/C=C/C[C@](C)(O)C1[C@H](O)C[C@@]2(C)[C@@H]3CC=C4[C@@H](C[C@H](O)[C@@H](O)C4(C)C)[C@]3(C)C(=O)C[C@]12C", "method": "MTT", "result": ">50 µM"}
{"SMILES": "N#Cc1ccc(OCCCCC(=O)c2ccc(Cl)cc2)cc1", "result": "319 µM"}
{"SMILES": "Cc1cc(CCCOc2c(C)cc(-c3noc(C(F)(F)F)n3)cc2C)on1", "result": "77 µM"}
{"SMILES": "CCSc1n[nH]c(-c2ccc(Cl)cc2C)n1", "result": "12.57 µg/mL"}
{"SMILES": "CCN(CC)c1cc(-c2ccc(OC)cc2O)on1", "result": ">381 µM"}
{"SMILES": "Cc1nc(CC(=O)NN)nn1C", "result": ">400 µg/mL"}
{"SMILES": "O=C(Nc1ccc(C(=O)N2CCc3cc(C(=O)N4CCOCC4)sc3-c3ccccc32)cc1)c1ccccc1-c1ccccc1", "result": ">100 µM"}
{"SMILES": "CCOC(=O)/C=C/[C@H](CCC(N)=O)NC(=O)[C@H](Cc1ccccc1)NC(=O)[C@H](CC(C)C)NC(=O)OC(C)(C)C", "result": ">320 µM"}
{"SMILES": "Nc1ncnc2c1ncn2[C@@H]1O[C@H](CCl)C[C@H]1O", "result": "200 µg/mL"}
{"SMILES": "CCSC1NN=C(Cc2nc(C)n(C)n2)N1c1ccccc1", "result": "400 µg/mL"}
{"SMILES": "COc1c[nH]c(=O)c2[nH]cc(C(=O)C(=O)N3CCN(C(=O)c4ccccc4)CC3)c12", "method": "trypan blue", "result": ">100 µM"}
{"SMILES": "CCOC(=O)c1ccc(OCCOc2ccc(-c3onc(SC)c3C#N)cc2)cc1", "result": "10 µM"}